The test addresses SARS-CoV-2 BA.1/Omicron RBD-His (UniProt P0DTC2). Nature of the test: BLI. The note with it: Fc fusion.

For orientation: Kd means the constant that tells how readily two partners part at equilibrium. A higher Kd goes with weaker binding. Substance VHH72-S56A_Fc displayed a dissociation constant (Kd) of 180 nM. This lies in the sub-micromolar range.

For the origin of these results see patent US20240101647A1.
